Results of unrelated studies side by side (data: NIAID ChemDB).

Common to all: tests in culture; species: Mycobacterium tuberculosis

A number after MIC or MFC names an inhibition level or a share of isolates. ECn is the concentration giving n% inhibition of infection, replication or growth. MIC bound: limit read from a one-dose screen. Percent inhibition refers to the dose given; in toxicity tests it is the harm to the cells. Lines come from different laboratories, so protocols vary. Blank or dashed fields: not listed here.

structure	read by	changes	setting	measure	cell line	tested at	strain or isolate	result
CCN(CC)C(=S)S[Se](SC(=S)N(CC)CC)(SC(=S)N(CC)CC)SC(=S)N(CC)CC				MIC			CS-R	0.8 µg/mL
O=C(/C=C/c1ccc(F)cc1Cl)c1ccc(F)cc1	MTT		14 d	MIC			H37Rv	32 µg/mL
O=C(O)c1cn2c(n1)CN(c1cc3c(cc1[N+](=O)[O-])c(=O)c(C(=O)O)c1n3CS1)CC2	agar			MIC			H37Rv	0.2 µM
O=C(O)/C(=C\c1ccc(Br)cc1)n1nnc2ccccc21				EC50			H37Rv	>12.5 µg/mL
CO[C@H]1/C=C/O[C@@]2(C)Oc3c(C)c(=O)c4c(O)c(c5oc6cc(N7CCCCCC7)ccc6nc5c4c3C2=O)NC(=O)/C(C)=C\C=C\[C@H](C)[C@H](O)[C@@H](C)[C@@H](O)[C@@H](C)[C@H](OC(C)=O)[C@@H]1C				MIC			H37Rv	0.07 µg/mL
CC(C)(C)NC(=O)C1c2ccccc2CCN1c1cc2c(cc1F)c(=O)c(C(=O)O)c1n2CS1	agar			MIC			H37Rv	3.24 µM
CCCCCCCCCCCCCCCCCC(=O)OC(CO)OC(=O)CCCCCCCCCCCCCCCCC	BACTEC			inhibition		12.5 µg/mL	H37Rv	5%
CO[C@H]1/C=C/O[C@@]2(C)Oc3c(C)c(=O)c4c(O)c(c5oc6cc(N(C)C)ccc6nc5c4c3C2=O)NC(=O)/C(C)=C\C=C\[C@H](C)[C@H](O)[C@@H](C)[C@@H](O)[C@@H](C)[C@H](OC(C)=O)[C@@H]1C				MIC			H37Rv	0.07 µg/mL
O=C(Nc1ccc(Br)cc1)c1ccccc1O				MIC			CNCTC MY 331/8	16 µM
CCC1CN2CCc3cc(OC)c(OC)cc3C2CC1=O	BACTEC			inhibition		12.5 µg/mL	H37Rv	14%
OCc1ccccc1Sc1ccccc1CNCCNCC(c1ccccc1)c1ccccc1				MIC				6.25 µM
N#C/C(=C\c1ccc2c(c1)OCO2)n1nc2ccccc2n1				EC50			H37Rv	>12.5 µg/mL
C=CCO[C@@H]1OC(COC(C)=O)[C@H](OC(C)=O)[C@H](O[C@@H]2OC(C)[C@H](OC(C)=O)[C@H](OC(C)=O)C2OC(C)=O)C1NC(C)=O	agar			MIC			H37Rv	12.5 µg/mL
Cc1ccc(NCCN(C)C)c2c(=O)c3cc(O)ccc3sc12.I	BACTEC			MIC bound			H37Rv	>12.8 µg/mL
NNS(=O)(=O)c1ccccc1				MIC				>200 µg/mL
COc1ccc(C(=O)/C=C/c2ccc(F)cc2)cc1F	MTT		7 d	MIC			H37Rv	128 µg/mL
Oc1cc(CCc2ccccc2)ccc1Oc1ccc(Cl)cc1Cl				MIC			Clinical isolate 5071	52 µM
O=C(/C=C/c1c(F)cccc1Cl)c1ccccc1	resazurin		7 d	MIC			H37Rv	16 µg/mL
O=C(c1ccc(Br)cc1)c1cn(-c2ccccc2)nn1				MIC			H37Rv	>12.5 µg/mL
COC(=O)/C1=C/c2c([nH]c3ccc(I)cc23)/C(C(=O)OC)=C\c2c1[nH]c1ccc(I)cc21	resazurin / absorbance			EC50			H37Rv	3.89 µM
N#CNNC(=O)c1ccccc1				MIC				>40 µg/mL
CO[C@H]1/C=C/O[C@@]2(C)Oc3c(C)c(O)c4c(O)c(c(/C=N/N5CCN(C)CC5)c(O)c4c3C2=O)NC(=O)/C(C)=C\C=C\[C@H](C)[C@H](O)[C@@H](C)[C@@H](O)[C@@H](C)[C@H](OC(C)=O)[C@@H]1C	broth dilution	Ethambutol-resistant		MIC80			17003	0.04 µM
O=C(O)/C(=C\c1ccccc1)n1nnc2ccccc21				EC50			H37Rv	>12.5 µg/mL
COC(=O)c1cnc(C(=O)c2ccccc2O)cn1	resazurin			inhibition		6.25 µg/mL	H37Rv	53%
COc1cc2c(cc1OC)-c1c3c(cc4c1[C@@H](C2)N(C)CC4)OCO3	BACTEC			inhibition		12.5 µg/mL	H37Rv	27%
O=C(/C=C/c1ccccc1)NNC(=O)/C=C/c1ccccc1				MIC				>200 µg/mL
NC(=O)c1csc(N)n1	BACTEC			inhibition		12.5 µg/mL	H37Rv	-11%
NNC(=O)c1ccccc1				MIC				200 µg/mL
O=C(NCc1ccc([N+](=O)[O-])cc1)c1ncccc1O				MIC			CNCTC MY 331/8	125 µM
O=C(O)c1cc(O)c2c(c1)[C@H]([C@H]1c3cc(C(=O)O)cc(O)c3C(=O)c3c(O[C@@H]4O[C@H](CO)[C@@H](O)[C@H](O)[C@H]4O)cccc31)c1cccc(O[C@@H]3O[C@H](CO)[C@@H](O)[C@H](O)[C@H]3O)c1C2=O	BACTEC			MIC			H37Rv	≥12.5 µg/mL
Cc1noc(-c2nc(C)c3c(c2N)C(=O)N(Cc2cccc(Cl)c2)C3=O)n1	resazurin / visual reading	Ala317Thr		MIC90			H37Rv-MA	>10 µM
COc1ccc(C2COc3cc(OC(C)=O)c(OC(C)=O)cc3C2)cc1	BACTEC			MIC bound			H37Rv	>12.5 µg/mL
O=c1[nH]nc(-c2ccccc2Cl)[nH]1				MIC				>40 µg/mL
COc1cc(C2SC(C)C(=O)N2NC(=O)COc2ccc(NC(C)=O)cc2)cc(OC)c1OC				inhibition		12.5 µg/mL	H37Rv	27%
O=[N+]([O-])c1ccc(-n2cnc([N+](=O)[O-])c2)cc1				inhibition		6.25 µg/mL	H37Rv	0%
CO[C@H]1/C=C/O[C@@]2(C)Oc3c(C)c(=O)c4c(O)c(c5oc6cc(N7CCCCC7)ccc6nc5c4c3C2=O)NC(=O)/C(C)=C\C=C\[C@H](C)[C@H](O)[C@@H](C)[C@@H](O)[C@@H](C)[C@H](OC(C)=O)[C@@H]1C				MIC			H37Rv	0.07 µg/mL
COC(=O)c1cnc(C(=O)c2ccccc2)cn1	resazurin			inhibition		6.25 µg/mL	H37Rv	48%
O=C1C=C(Nc2ccc(Br)cc2)c2ccccc2C1=O	resazurin			MIC	VERO		H37Rv	≤0.1 µg/mL
CCCCCCCCCCCCSCCCO[C@@H]1OC(COC(C)=O)[C@H](OC(C)=O)[C@H](O[C@@H]2OC(C)[C@H](OC(C)=O)[C@H](OC(C)=O)C2OC(C)=O)C1NC(C)=O	agar			MIC			H37Rv	>12.5 µg/mL
COC(=O)C1=C2C3(O)CC4CC5C3CCC(C)N5C24C2CCC(O)C(OC)C2C1OC(=O)c1ccccc1	BACTEC			MIC			H37Rv	≥128 µg/mL
NCCC[C@H](N)CC(=O)N[C@H]1CNC(=O)[C@H]([C@H]2C[C@H](O)NC(N)=N2)NC(=O)/C(=C/NC(N)=O)NC(=O)[C@H](CO)NC(=O)[C@H](CO)NC1=O				MIC			Isolate VIM-R/5	>40 µg/mL
Cc1ccc(C(=O)N=Nc2c(Cl)c(O)c3ccccc3c2O)cc1	BACTEC			inhibition		12.5 µg/mL	H37Rv	98%
CN1CCN(c2c(F)cc3c(=O)c(C(=O)O)cn(CCF)c3c2F)CC1				MIC90				3.13 µg/mL
O=C(N/N=C/c1ccc(Cl)cc1)c1ccccc1Cl				MIC				100 µg/mL
O=C(NCc1ccccc1)c1ncccc1S				MIC			CNCTC MY 331/8	8 µM
NC(=O)c1cnc(C(=O)c2ccc(O)cc2)cn1	resazurin			inhibition		6.25 µg/mL	H37Rv	0%
O=C(NCc1ccccc1)c1ncccc1O				MIC			CNCTC MY 331/8	500 µM
Nc1nnc2nc(C3(c4nc5nnc(N)n5[nH]c4=O)Cc4ccccc4C3=O)c(=O)[nH]n12	BACTEC			inhibition		12.5 µg/mL	H37Rv	0%
NCCCC(N)CC(=O)NCC1NC(=O)C(CO)NC(=O)C(NC(=O)CC(N)CCCN)CNC(=O)C(C2CCN=C(N)N2)NC(=O)/C(=C/NC(N)=O)NC1=O				MIC			Isolate VIM-S	5 µg/mL
CCCCCC(/C=C/C1C=CC(=O)C1C/C=C/CCCC(=O)OC)OC(C)=O	BACTEC			MIC bound			H37Rv	>12.5 µg/mL
Cc1nc([N+](=O)[O-])cn1-c1ccc(Cl)cc1				MIC	VERO		H37Rv	0.39 µg/mL
COc1cc2c(cc1OC)CN(c1cc3c(cc1[N+](=O)[O-])c(=O)c(C(=O)O)c1n3CS1)CC2	agar			MIC			H37Rv	0.83 µM
CC1CCCC(NCCNCc2ccc(C(F)(F)F)cc2)C1C				MIC				>50 µM
O=C(O)c1c2n(c3cc(N4CCC(N5CCCCC5)CC4)c(F)cc3c1=O)CS2	agar			MIC			H37Rv	7.49 µM
c1ccc(CCCCNCCNC2CCc3ccccc32)cc1				MIC				50 µM
CC(=O)NNS(=O)(=O)c1ccc(Cl)c(Cl)c1				MIC				>200 µg/mL
O=C(Nc1ccc(Cl)cc1)c1ncccc1O				MIC			CNCTC MY 331/8	62.5 µM
CC(=O)Nc1ccc(OCC(=O)NN2C(=O)CSC2c2ccccc2Cl)cc1				EC50			H37Rv	>12.5 µg/mL
O=C(NCc1cccc(Cl)c1)c1ncccc1S				MIC			CNCTC MY 331/8	8 µM
O=C(/C=C/c1ccc(F)cc1Cl)c1ccccc1	resazurin		7 d	MIC			H37Rv	32 µg/mL
Cc1nc([N+](=O)[O-])cn1-c1ccc([N+](=O)[O-])cc1				inhibition		6.25 µg/mL	H37Rv	83%
CC(=O)NC1[C@H](OCCCSC23CC4CC(CC(C4)C2)C3)OC(COC(C)=O)[C@H](OC(C)=O)[C@@H]1O[C@@H]1OC(C)[C@H](OC(C)=O)[C@H](OC(C)=O)C1OC(C)=O	agar			MIC			H37Rv	12.5 µg/mL
N#C/C(=C\c1ccc(-c2ccccc2)cc1)n1nnc2ccccc21				inhibition		12.5 µg/mL	H37Rv	0%
O=C(/C=C/c1ccc(F)cc1)c1ccc(F)cc1	resazurin		14 d	MIC			H37Rv	32 µg/mL
O=C(Nc1ccc(Cl)cc1)Nc1nnc2nc(CC(=O)c3cccc([N+](=O)[O-])c3Cl)c(=O)[nH]n12	BACTEC			MIC bound			H37Rv	>12.5 µg/mL
CCOC(=O)c1cc(C(=O)c2ccccc2)n2ccc(-c3ccncc3)cc12	resazurin			EC90			H37Rv (ATCC 27294)	>100 µg/mL
N#C/C(=C/C1CCCCC1)n1nnc2ccccc21				inhibition		12.5 µg/mL	H37Rv	0%
O=C(/C=C/c1ccccc1Cl)c1ccccc1	resazurin		14 d	MIC			H37Rv	32 µg/mL
CCCCCCCCCCCCCCCCOCC(O)CO	BACTEC			inhibition		12.5 µg/mL	H37Rv	88%
O=C(Nc1cccc([N+](=O)[O-])c1)c1ccccc1O				MIC			CNCTC MY 331/8	16 µM
S=c1nn[nH]n1-c1ccccc1				MIC				>200 µg/mL
COc1nc(C(Cl)(Cl)Cl)c(Cl)c(OC)c1Cl	BACTEC			MIC bound			H37Rv	>12.5 µg/mL
CN[C@@H]1[C@H](O[C@H]2[C@H](O[C@H]3[C@H](O)[C@@H](O)[C@H](N=C(N)N)[C@@H](O)[C@@H]3N=C(N)N)O[C@@H](C)[C@]2(O)C=O)O[C@@H](CO)[C@H](O)[C@H]1O	broth dilution	Ethambutol-resistant		MIC80			17003	0.3 µM
COc1cc([C@@H]2OC[C@@H]3C(c4ccc5c(c4)OCO5)OC[C@@H]32)cc(OC)c1OC	BACTEC			MIC bound			H37Rv	>12.5 µg/mL
CC(C)CCc1ccc(Oc2ccc(Cl)cc2Cl)c(O)c1				MIC			H37Rv	60 µM
O=C(c1ccc(Cl)c(Cl)c1)c1cn(-c2ccccc2)nn1				MIC			H37Rv	>12.5 µg/mL
CC(=O)Nc1ccc(OCC(=O)NN2C(=O)C(C)SC2c2ccccc2)cc1				EC50			H37Rv	>12.5 µg/mL
O=C1N=C2SC(=S)NC(=S)N2NC12c1ccccc1-c1ccccc12	BACTEC			MIC bound			H37Rv	>12.5 µg/mL
N#Cc1cnc(C(=O)c2ccc(Cl)cc2)cn1	resazurin			inhibition		6.25 µg/mL	H37Rv	12%
Cc1coc(C)c1C(=O)c1cn(-c2ccccc2)nn1				inhibition		12.5 µg/mL	H37Rv	82%
Cc1cc(S(=O)(=O)Nc2n[nH]c(Nc3ccccc3)n2)c(S)cc1Cl	BACTEC			inhibition		12.5 µg/mL	H37Rv	-1%
O=C(/C=C/c1ccccc1Cl)c1ccc(F)cc1	resazurin		21 d	MIC			H37Rv	32 µg/mL
CCC1OC(=O)CC(O)C(C)C(OC2OC(C)C(O)C(N(C)C)C2O)C(CC=O)CC(C)C(=O)/C=C\C2(C)OC2C1C	BACTEC			MIC			H37Rv	≥12.5 µg/mL
O=C(N/N=C/c1ccccc1[N+](=O)[O-])c1ccccc1				MIC				1 µg/mL
CCOc1ccccc1CNCCNCCc1cc(OC)ccc1OC				MIC				50 µM

7 of the rows above, restated:

structure	read by	changes	setting	measure	cell line	tested at	strain or isolate	result
COC(=O)c1cnc(C(=O)c2ccccc2)cn1	resazurin			inhibition		6.25 µg/mL	H37Rv	48%
CCCCCCCCCCCCSCCCO[C@@H]1OC(COC(C)=O)[C@H](OC(C)=O)[C@H](O[C@@H]2OC(C)[C@H](OC(C)=O)[C@H](OC(C)=O)C2OC(C)=O)C1NC(C)=O	agar			MIC			H37Rv	>12.5 µg/mL
O=C(NCc1cccc(Cl)c1)c1ncccc1S				MIC			CNCTC MY 331/8	8 µM
Cc1cc(S(=O)(=O)Nc2n[nH]c(Nc3ccccc3)n2)c(S)cc1Cl	BACTEC			inhibition		12.5 µg/mL	H37Rv	-1%
NC(=O)c1csc(N)n1	BACTEC			inhibition		12.5 µg/mL	H37Rv	-11%
Cc1nc([N+](=O)[O-])cn1-c1ccc([N+](=O)[O-])cc1				inhibition		6.25 µg/mL	H37Rv	83%
OCc1ccccc1Sc1ccccc1CNCCNCC(c1ccccc1)c1ccccc1				MIC				6.25 µM